In the supplement of paper PMC9931576:
Human monoclonal antibodies against the spike receptor-binding domain (heavy:light variable regions). IC50 against pseudoviruses bearing the spike of naturally observed variants; lower = stronger; >10 µg/ml means not reached at the top dose. No active / inactive call. The stated detection limit is 0.0005 µg/ml; values near or below 0.001 µg/ml lie at the floor of the assay.

B1: BD-897 (protein)
chain 1: QVQLVQSGAEVKKPGSSVKVSCKTSGDTLSRDAITWVRQAPGQGLEWMGRIIPMFAIANYAPKFQGRVTITADKSTSTVYVEISSVRSEDTAVYYCARGAYQSGSSGYHLEEWGQGTLVIVSS
chain 2: EIVLTQSPGTLSLSPGERATLSCRASQALSGNYLAWYQQVPGQPPRLLIYGASIRASGIPDRFSGSGSGTDFTLTISRLEPADFAVYYCHQYHNSPRTFGQGTKVEV
B2: BD-870 (protein)
chain 1: EAQLVESGGGLVQPGGSLRLSCEASGFPFSTYEMNWVRQAPGKGLEWLSKITSSGGTVLYADSVKGRFTMSRDNARDSLYLQMNSLTVEDTAVYYCARVKRVSSWFFELWGRGTLVTVSS
chain 2: DIQMTQSPSTLFASVGDTVTITCRTSQSISSWVAWYQQKPGKAPKLLIYKTSSLESGVPSRFSGGGSGTEFTLTISSLQSDDFATYYCQQCDGYSTFAQGTKLEIK
B3: BD-907 (protein)
chain 1: QVQLVQSGSELKKPGASVKVSCKASGYTFSSYYLNWVRQAPGQGLEWMGWIDTNTGNPTYAQAFTGRFVFSLDTSVSTAYLQIGSLQANDTAVYYCAREGGGWSGLYYYFGMDVWGQGTTVTVSS
chain 2: EIVLTQSPGTLSLSPGERATVSCRASQSIGSNYLAWYQQKPGQAPRLLIYGASSRATGIPDRFSGSGSGTDFTLTISRLEPEDFAVYYCQQYGSSPPYTFGQGTKLEIK
B4: BD-898 (protein)
chain 1: QMQLVQSGPEVKKPGTSVKVSCKASGFNFYYSAVQWVRQARGQRLEWIGWIVVGSGNTDYAHDFKERVTITRDMSTSTAFMELISLRPEDTAIYYCAAPHCSGGTCYDGFDLWGQGTVITVSS
chain 2: DIVLSQSPDTLSLSPGESAALSCRASQSVRSSYLAWYQQKPGQAPRLLIYGASSRATGIPDRFSGSGSGTDFTLTINRLEPEDFAVYYCQQYSNSPWTFGHGTKVEIK
B5: BD55-599 (protein)
chain 1: EVQLVQSGAEVKKPGESLKISCKGSGYSFTRYWIAWVRQTPGKGLEWMGIIYPGDSDTRYSPSFQDQVTISADKSISTAFLQWSSLKASDTAMYFCARASSPFYYGSGSYQGGMDVWGQGTTVSVSS
chain 2: EIVMTQSPATLSVSPGERATLSCRASQRVSSNLAWYQQKPGQAPRLLIYGASTRATGIPARFSGSGSGTEFTLTISSLQSEDFALYYCQQYNNWPGEFTFGPGTTVDIK
B6: BD55-583 (protein)
chain 1: QVQLVQSGAEVKKPGSSVKVSCKASGGTFSSYAISWVRQAPGQGLEWMGGIIPIFGTTNYAQKFQGRVTITADESTSTAYMELSSLRSEDTAVYYCATFGDAVFGTANDYWGQGTLVTVSS
chain 2: EIVLTQSPGTLSLSPGERATLSCRASQSVSSNYLAWYQQKPGQAPRLLIYGASSRATGIPDRFSGSGSGRDFTLTISRLEPEDFAVYYCQQYGSSRTFGQGTKVEIK
B7: BD-913 (protein)
chain 1: QVQLVQSGAEVKKPGSSVKVSCKASGGTFSTYAISWVRQAPGQGLEWMGGIIPIVGIANDAQKFQGRVTITADKSTSTAYMELSSLRSEDTAVFYCARAQRKQWPVEDAYDIWGQGTMVTVSS
chain 2: QSVLTQPPSVSGAPGQRVTISCTGSSSNIGAGYDVHWYQQLPGTAPKLLIYGNSNRPSGVPDRFSGSKSGTSASLAITGLQAEDEADYYCQSYDSSLSGSVFGGGTKVTVL
B8: BD-618 (protein)
chain 1: EVQLVESGGGLVQPGGSLRLSCAVSGFIVSRNYMTWVRQAPGKGLEWVSLIYSGGSTFYTNSVKGRFTISRDNSKNTLYLQMDSLRAEDTAVYYCARGPYPRFDYWGQGTLVTVSS
chain 2: not shown
B9: BD55-598 (protein)
chain 1: QVQLQQSGPGLVKPSQTLSLTCAISGDSVSSNSAAWNWIRQSPSRGLEWLGRTYYRSKWYNDYAVSVKSRITINPDTSKNQFSLQLNSVTPEDTAVYYCARDRLNSWVGEYYYDSDAFDIWGQGTMVTVSS
chain 2: SYELTQSFSVSVALGQTARITCGGNNIGSKNVHWYQQKPGQAPVLVIYRDSNRPSGIPERFSGSNSGNTATLTISRAQAGDEADYYCQVWDSSTWVFGGGTKLTVL
B10: BD-616 (protein)
chain 1: EVQLVESGGGLVQPGGSLRLSCAASGFIVSSNYMSWVRQAPGKGLEWVSVIYSGGSTYYADSVKGRFTISRDNSKNTLYLRMNSLRAEDTAVYYCARAPYCSSRSCETWGQGTLVTVSS
chain 2: DIQMTQSPSSLSASVGDRVTITCQASQDIRNYLNWYQQKPGKAPNLLIYDASNLETGVPSRFSGSGSGTDFTFTINSLQPEDIATYYCQQYDNLPITFGQGTRLEIK
B11: BD-863 (protein)
chain 1: QLQLQESGPGLVKPSETLSLTCSVSGGSIGSSTYYWGWIRQPPGKGLEWIGSVFYSGITYYNPSLKTRVTISVDTSKNQFSLKVTSVTPPDTAFYYCARVTRLMEPAGSVDSWGQGTLVTVSS
chain 2: QSALTQPASVSGSLGQSITISCTGTSSDVGSYDLVSWYQQHPGKAPKFMIYEVNKRPSGVSNRFSGSKSGNTASLTISGLQTEDEAEYYCCSYVSNGALLFGGGTKVTVL
B12: BD55-556 (protein)
chain 1: QVQLQESGPGLVKPSETLSLTCSVSNGSFSSYYWSWIRQPPGKGLEWIGYIYNSGSTNYNPSLKSRVTISVDPSKNQFSLKLSSVTAADTAVYYCARLIGDFRDDYNPRIYDAFDIWGQGTMVTVSS
chain 2: DIQMTQSPSSVSASVGDRVTITCRASQGVSSWLAWYQQKPGKAPKLLIYAASSLQSGVPSRFSGSGSGTDFTLTISSLQPEDFATYYCQQANSFPLTFGQGTKLEIK
B13: BD55-600 (protein)
chain 1: QVQLVESGGGVVQPGRSLRLSCAASGFTFRSYAMHWVRQAPGKGLEWVALISYDGNNKYYVDSVKGRFTISRDNSENTLYLHMNSLRVEDTAVYYCARGPWHDWAPWYLDLWGRGTLVTASS
chain 2: DIQMTQSPSSLSASVGDRVTITCRASQGISSWLAWYQQKPEKAPKSLIYAASSLQSGVPSRFSGSGSGTDFTLTISSLQPEDFATYYCQQYNSYPLTFGGGTKVEIK

These binders were tested against SARS-CoV-2 Omicron BA.1 spike pseudovirus (assay: pseudovirus neutralization IC50; higher = weaker neutralization).
Method: (§1)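 Single-round VSV luciferase pseudovirus mixed with antibody dilutions for 1 h and put on Huh-7 cells for about a day; IC50 from the dose curve.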
With B1 the “pseudovirus neutralization IC50” value was 0.0113 µg/mL. With B2 the “pseudovirus neutralization IC50” value was > 10 µg/mL. In the case of B3, the “pseudovirus neutralization IC50” value is reported as 0.296 µg/mL. For B4, the “pseudovirus neutralization IC50” value was 0.00032 µg/mL. B5 was tested, and the “pseudovirus neutralization IC50” value was > 10 µg/mL. With B6 the “pseudovirus neutralization IC50” value was > 10 µg/mL. In the case of B7, the “pseudovirus neutralization IC50” value is reported as > 10 µg/mL. With B8 the “pseudovirus neutralization IC50” value was 0.049 µg/mL. B9 was tested, and the “pseudovirus neutralization IC50” value was > 10 µg/mL. For B10, the “pseudovirus neutralization IC50” value was > 10 µg/mL. B11 was tested, and the “pseudovirus neutralization IC50” value was > 10 µg/mL. In the case of B12, the “pseudovirus neutralization IC50” value is reported as > 10 µg/mL. With B13 the “pseudovirus neutralization IC50” value was > 10 µg/mL.

These binders were tested against SARS-CoV-2 Omicron BA.2 spike pseudovirus in the same assay as above.
Method: as §1
In the case of B1, the “pseudovirus neutralization IC50” value is reported as 0.0159 µg/mL. In the case of B2, the “pseudovirus neutralization IC50” value is reported as > 10 µg/mL. In the case of B3, the “pseudovirus neutralization IC50” value is reported as 0.345 µg/mL. With B4 the “pseudovirus neutralization IC50” value was 0.000394 µg/mL. With B5 the “pseudovirus neutralization IC50” value was > 10 µg/mL. For B6, the “pseudovirus neutralization IC50” value was > 10 µg/mL. With B7 the “pseudovirus neutralization IC50” value was > 10 µg/mL. With B8 the “pseudovirus neutralization IC50” value was 0.065 µg/mL. In the case of B9, the “pseudovirus neutralization IC50” value is reported as > 10 µg/mL. For B10, the “pseudovirus neutralization IC50” value was > 10 µg/mL. For B11, the “pseudovirus neutralization IC50” value was > 10 µg/mL. With B12 the “pseudovirus neutralization IC50” value was > 10 µg/mL. B13 was tested, and the “pseudovirus neutralization IC50” value was > 10 µg/mL.

These binders were tested against SARS-CoV-2 Omicron BA.2.75 spike pseudovirus in the same assay as above.
Method: as §1
For B1, the “pseudovirus neutralization IC50” value was 0.0176 µg/mL. B2 was tested, and the “pseudovirus neutralization IC50” value was > 10 µg/mL. With B3 the “pseudovirus neutralization IC50” value was > 10 µg/mL. In the case of B4, the “pseudovirus neutralization IC50” value is reported as 0.000528 µg/mL. With B5 the “pseudovirus neutralization IC50” value was > 10 µg/mL. For B6, the “pseudovirus neutralization IC50” value was > 10 µg/mL. For B7, the “pseudovirus neutralization IC50” value was > 10 µg/mL. B8 was tested, and the “pseudovirus neutralization IC50” value was > 10 µg/mL. B9 was tested, and the “pseudovirus neutralization IC50” value was > 10 µg/mL. B10 was tested, and the “pseudovirus neutralization IC50” value was > 10 µg/mL. B11 was tested, and the “pseudovirus neutralization IC50” value was > 10 µg/mL. With B12 the “pseudovirus neutralization IC50” value was > 10 µg/mL. For B13, the “pseudovirus neutralization IC50” value was > 10 µg/mL.

The binders below were run against SARS-CoV-2 Omicron BA.5 spike pseudovirus in the same assay as above.
Method: as §1
For B1, the “pseudovirus neutralization IC50” value was > 10 µg/mL. In the case of B2, the “pseudovirus neutralization IC50” value is reported as > 10 µg/mL. For B3, the “pseudovirus neutralization IC50” value was 0.468 µg/mL. In the case of B4, the “pseudovirus neutralization IC50” value is reported as 0.00125 µg/mL. For B5, the “pseudovirus neutralization IC50” value was > 10 µg/mL. With B6 the “pseudovirus neutralization IC50” value was > 10 µg/mL. With B7 the “pseudovirus neutralization IC50” value was > 10 µg/mL. For B8, the “pseudovirus neutralization IC50” value was 0.0551 µg/mL. In the case of B9, the “pseudovirus neutralization IC50” value is reported as > 10 µg/mL. With B10 the “pseudovirus neutralization IC50” value was > 10 µg/mL. With B11 the “pseudovirus neutralization IC50” value was > 10 µg/mL. B12 was tested, and the “pseudovirus neutralization IC50” value was > 10 µg/mL. For B13, the “pseudovirus neutralization IC50” value was > 10 µg/mL.

The binders below were run against SARS-CoV-2 Omicron BQ.1.1 spike pseudovirus in the same assay as above.
Method: as §1
B1 was tested, and the “pseudovirus neutralization IC50” value was > 10 µg/mL. With B2 the “pseudovirus neutralization IC50” value was > 10 µg/mL. For B3, the “pseudovirus neutralization IC50” value was > 10 µg/mL. B4 was tested, and the “pseudovirus neutralization IC50” value was 0.00598 µg/mL. For B5, the “pseudovirus neutralization IC50” value was > 10 µg/mL. With B6 the “pseudovirus neutralization IC50” value was > 10 µg/mL. B7 was tested, and the “pseudovirus neutralization IC50” value was > 10 µg/mL. B8 was tested, and the “pseudovirus neutralization IC50” value was 2.74 µg/mL. With B9 the “pseudovirus neutralization IC50” value was > 10 µg/mL. For B10, the “pseudovirus neutralization IC50” value was > 10 µg/mL. In the case of B11, the “pseudovirus neutralization IC50” value is reported as > 10 µg/mL. For B12, the “pseudovirus neutralization IC50” value was > 10 µg/mL. For B13, the “pseudovirus neutralization IC50” value was > 10 µg/mL.

The binders below were run against SARS-CoV-2 Omicron XBB spike pseudovirus in the same assay as above.
Method: as §1
For B1, the “pseudovirus neutralization IC50” value was > 10 µg/mL. In the case of B2, the “pseudovirus neutralization IC50” value is reported as > 10 µg/mL. B3 was tested, and the “pseudovirus neutralization IC50” value was > 10 µg/mL. In the case of B4, the “pseudovirus neutralization IC50” value is reported as > 10 µg/mL. With B5 the “pseudovirus neutralization IC50” value was > 10 µg/mL. In the case of B6, the “pseudovirus neutralization IC50” value is reported as > 10 µg/mL. In the case of B7, the “pseudovirus neutralization IC50” value is reported as > 10 µg/mL. With B8 the “pseudovirus neutralization IC50” value was > 10 µg/mL. With B9 the “pseudovirus neutralization IC50” value was > 10 µg/mL. In the case of B10, the “pseudovirus neutralization IC50” value is reported as > 10 µg/mL. In the case of B11, the “pseudovirus neutralization IC50” value is reported as > 10 µg/mL. B12 was tested, and the “pseudovirus neutralization IC50” value was > 10 µg/mL. With B13 the “pseudovirus neutralization IC50” value was > 10 µg/mL.

Each binder was assayed against SARS-CoV-2 early D614G spike pseudovirus in the same assay as above.
Method: as §1
In the case of B1, the “pseudovirus neutralization IC50” value is reported as 0.005 µg/mL. For B2, the “pseudovirus neutralization IC50” value was 0.007 µg/mL. B3 was tested, and the “pseudovirus neutralization IC50” value was 0.063 µg/mL. With B4 the “pseudovirus neutralization IC50” value was 0.005 µg/mL. With B5 the “pseudovirus neutralization IC50” value was > 10 µg/mL. B6 was tested, and the “pseudovirus neutralization IC50” value was > 10 µg/mL. B7 was tested, and the “pseudovirus neutralization IC50” value was 0.328 µg/mL. For B8, the “pseudovirus neutralization IC50” value was 0.0267 µg/mL. For B9, the “pseudovirus neutralization IC50” value was > 10 µg/mL. In the case of B10, the “pseudovirus neutralization IC50” value is reported as 0.0585 µg/mL. With B11 the “pseudovirus neutralization IC50” value was > 10 µg/mL. With B12 the “pseudovirus neutralization IC50” value was 0.0152 µg/mL. With B13 the “pseudovirus neutralization IC50” value was 0.0655 µg/mL.
